Results of unrelated studies side by side (data: NIAID ChemDB).

Shared fields: tests on isolated targets; organism: HIV-1; protein: Reverse transcriptase; endpoint: fold resistance

Fold resistance: result on the changed form divided by that on wild type. Lines come from different laboratories, so protocols vary.

{"SMILES": "Cc1cc2c(cc1C)n1cccc1c(=O)n2CCNC(=S)Nc1ccc(Br)cn1", "changes": "RT-L100I", "method": "nucleotide incorporation", "result": "3.2"}
{"SMILES": "Nc1ccn([C@H]2CC[C@@H](COP(=O)(O)OP(=O)(O)OP(=O)(O)O)O2)c(=O)n1", "changes": "RT-P225H", "method": "nucleotide incorporation / radiometric", "result": "0.65"}
{"SMILES": "O=P(O)(O)OP(=O)(O)O", "changes": "RT-Q161L H208Y", "result": "2.9"}
{"SMILES": "Cc1c(Cc2c(F)cccc2F)nc(SCc2ccc([N+](=O)[O-])cc2)[nH]c1=O", "changes": "RT-181I", "method": "nucleotide incorporation / radiometric", "result": "~1"}
{"SMILES": "Cc1c(Sc2ccccc2)n(COCCO)c(=O)[nH]c1=O", "changes": "RT-V108I", "result": "2"}
{"SMILES": "O=c1c2cccn2c2ccccc2n1CCNC(=S)Nc1ccc(Br)cn1", "changes": "RT-Y188L", "method": "nucleotide incorporation", "result": "43.1"}
{"SMILES": "Nc1ccn([C@@H]2CS[C@H](COP(=O)(O)OP(=O)(O)OP(=O)(O)O)O2)c(=O)n1", "changes": "RT-T215Y", "method": "nucleotide incorporation / radiometric", "result": "2.6"}
{"SMILES": "Cc1cc(S(N)(=O)=O)ccc1NC(=O)COc1ccc(Cl)cc1C(=O)c1cc(Cl)cc(C#N)c1", "changes": "RT-V106A", "method": "fluorescence", "result": "2.22"}
{"SMILES": "Nc1ncnc2c1ncn2CCOCP(=O)(O)OP(=O)(O)OP(=O)(O)O", "changes": "RT-T215Y", "method": "nucleotide incorporation / radiometric", "result": "1.24"}
{"SMILES": "CCOCn1c(Cc2ccccc2)c(C(C)C)c(=O)[nH]c1=O", "changes": "RT-V106A P225H", "method": "nucleotide incorporation / radiometric", "result": "219"}
{"SMILES": "CCOc1cccc(C2(CC)Oc3ccccc3-n3cccc3C2=O)c1", "changes": "RT-L100I", "method": "nucleotide incorporation / radiometric", "result": "0.26"}
{"SMILES": "CCCCOc1ccc(CSc2nc(Cc3c(Cl)cccc3Cl)c(C)c(=O)[nH]2)cc1", "changes": "RT-181I", "method": "nucleotide incorporation / radiometric", "result": ">142.8"}
{"SMILES": "Nc1nc2c(ncn2[C@H]2C[C@H](O)[C@@H](COP(=O)(O)OP(=O)(O)OP(=O)(O)O)O2)c(=O)[nH]1", "changes": "RT-Q151M", "method": "nucleotide incorporation / radiometric", "result": "0.67"}
{"SMILES": "Cc1c(Cc2c(Cl)cccc2Cl)nc(SCc2cccc(C#N)c2)[nH]c1=O", "changes": "RT-K103N", "method": "nucleotide incorporation / radiometric", "result": ">42"}
{"SMILES": "CCC1(c2ccc(COc3cccnc3)cc2)Oc2ccccc2-n2cccc2C1=O", "changes": "RT-Y188L", "method": "nucleotide incorporation / radiometric", "result": "9.75"}
{"SMILES": "O=c1c2cccn2ccn1CCNC(=S)Nc1ccc(Br)cn1", "changes": "RT-L100I", "method": "nucleotide incorporation", "result": "3.39"}
{"SMILES": "Nc1nc2c(ncn2[C@H]2CC[C@@H](COP(=O)(O)OP(=O)(O)OP(=O)(O)O)O2)c(=O)[nH]1", "changes": "RT-V106A P225H", "method": "nucleotide incorporation / radiometric", "result": "0.75"}
{"SMILES": "CCC1(c2ccc(CNc3cccc(F)c3)cc2)Oc2ccccc2-n2cccc2C1=O", "changes": "RT-V106A", "method": "nucleotide incorporation / radiometric", "result": "3.75"}
{"SMILES": "Cc1occc1C(=S)Nc1ccc(Cl)c(/C=N/OC(C)(C)C)c1", "changes": "RT-P236L", "result": "0.75"}
{"SMILES": "CCC1(c2ccc(COc3ccccc3Cl)cc2)Oc2ccccc2-n2cccc2C1=O", "changes": "RT-Y188L", "method": "nucleotide incorporation / radiometric", "result": ">10"}
{"SMILES": "Cc1c(Cc2c(Cl)cccc2Cl)nc(SCc2ccc(O)cc2)[nH]c1=O", "changes": "RT-K103N", "method": "nucleotide incorporation / radiometric", "result": "~1"}
{"SMILES": "CCC1(c2ccc(Cn3ccsc3=N)cc2)Oc2ccccc2-n2cccc2C1=O", "changes": "RT-Y181I", "method": "nucleotide incorporation / radiometric", "result": ">6.25"}
{"SMILES": "CC(C)=CCN1Cc2cc(Cl)cc3[nH]c(=O)n(c23)C[C@@H]1C", "changes": "RT-V106A P225H", "method": "nucleotide incorporation / radiometric", "result": "68"}
{"SMILES": "CCC1(c2ccc(I)cc2)Oc2ccccc2-n2cccc2C1=O", "changes": "RT-V106A", "method": "nucleotide incorporation / radiometric", "result": "14.4"}
{"SMILES": "O=c1c2cccn2c2cccc(F)c2n1CCNC(=S)Nc1ccc(Br)cn1", "changes": "RT-K103N", "method": "nucleotide incorporation", "result": "17.8"}
{"SMILES": "Cc1cn([C@H]2CC[C@@H](COP(=O)(O)OP(=O)(O)OP(=O)(O)O)O2)c(=O)[nH]c1=O", "changes": "RT-I132A", "method": "nucleotide incorporation / radiometric", "result": "0.7"}
{"SMILES": "CCC1(c2cccc(COc3ccccc3)c2)Oc2ccccc2-n2cccc2C1=O", "changes": "RT-V106A", "method": "nucleotide incorporation / radiometric", "result": "10.4"}
{"SMILES": "C/C=C/CSc1cc(NC(=S)c2ccsc2C)ccc1Cl", "changes": "RT-Y181I", "result": "4.73"}
{"SMILES": "Nc1nc(=O)n([C@@H]2CC[C@H](COP(=O)(O)OP(=O)(O)OP(=O)(O)O)O2)cc1F", "changes": "RT-Q151M", "method": "nucleotide incorporation / radiometric", "result": "1.18"}

Repeating the final 4 entries:

{"SMILES": "Cc1cn([C@H]2CC[C@@H](COP(=O)(O)OP(=O)(O)OP(=O)(O)O)O2)c(=O)[nH]c1=O", "changes": "RT-I132A", "method": "nucleotide incorporation / radiometric", "result": "0.7"}
{"SMILES": "CCC1(c2cccc(COc3ccccc3)c2)Oc2ccccc2-n2cccc2C1=O", "changes": "RT-V106A", "method": "nucleotide incorporation / radiometric", "result": "10.4"}
{"SMILES": "C/C=C/CSc1cc(NC(=S)c2ccsc2C)ccc1Cl", "changes": "RT-Y181I", "result": "4.73"}
{"SMILES": "Nc1nc(=O)n([C@@H]2CC[C@H](COP(=O)(O)OP(=O)(O)OP(=O)(O)O)O2)cc1F", "changes": "RT-Q151M", "method": "nucleotide incorporation / radiometric", "result": "1.18"}